A mixed list of measured activities; the numbers were collected in NIAID ChemDB.

Common to all: enzyme or target tests; organism: HIV-1; protein: Integrase

a–b is a range or a potency band. Rows are shuffled and stem from different studies. ICn: concentration for n% inhibition. Blank or dashed fields: not listed here.

O=C(/C=C/c1ncc(F)cc1F)/C=C/c1ncc(F)cc1F ; read-out: IC50 ; value: 12 µM
CCOC(=O)c1cccc(N=Nc2c(S(=O)(=O)O)cc3cc(NC(=O)Nc4ccc5c(O)c(N=Nc6cccc(C(=O)OCC)c6)c(S(=O)(=O)O)cc5c4)ccc3c2O)c1 ; read-out: IC50 ; method: strand transfer ; value: 4 µM
O=P(O)(O)C(O)(CCCCc1ccccc1)P(=O)(O)O ; read-out: IC50 ; method: 3′ processing / gel ; value: >100 µM
O=C(Nc1ccc2c(O)c(N=Nc3cc(F)c(F)c(C(=O)O)c3F)c(S(=O)(=O)O)cc2c1)Nc1ccc2c(O)c(N=Nc3cc(F)c(F)c(C(=O)O)c3F)c(S(=O)(=O)O)cc2c1 ; read-out: IC50 ; method: 3′ processing ; value: 1 µM
O=C(NCCC(NC(=O)c1cc(O)c(O)c(O)c1)C(=O)O)c1cc(O)c(O)c(O)c1 ; read-out: IC50 ; method: 3′ processing ; value: 0.54 µM
CC(=O)c1cc2cc(Sc3ccccc3)c([N+](=O)[O-])cc2nc1C ; read-out: IC50 ; method: 3′ processing / gel ; value: >100 µM
O=C(/C=C/c1ncc(Cl)cc1Cl)/C=C/c1ncc(Cl)cc1Cl ; read-out: IC50 ; value: >20 µM
COc1cc2c(c(O)c1O)C1(C)Oc3c(O)c(OC)cc(CO)c3C(C)(O1)C2=O ; read-out: IC50 ; method: strand transfer ; value: 1.1 µM
COC1=C(c2c(OC)cc3cc4cc(C)oc(=O)c4c(O)c3c2O)C(=O)c2c(O)cc(C)cc2C1=O ; read-out: IC50 ; method: strand transfer ; value: >100 µM
N#C/C(=C\c1ccc(O)c(O)c1)C(=S)NCc1ccccc1 ; read-out: IC50 ; method: 3′ processing / substrate cleavage ; value: 10–100 µM
O=C(Nc1ccc2c(O)c(N=Nc3ccc(C(=O)O)cc3)c(S(=O)(=O)O)cc2c1)Nc1ccc2c(O)c(N=Nc3ccc(C(=O)O)cc3)c(S(=O)(=O)O)cc2c1 ; read-out: IC50 ; method: strand transfer ; value: 0.5 µM
CN(C)C(=O)C(=O)N1CCC2(CC1)OCCCn1c2nc(C(=O)NCc2ccc(F)cc2)c(O)c1=O ; read-out: Ki ; method: binding / radiometric ; value: 0.003–0.05 µM
N#C/C(=C\c1ccc(O)c(O)c1)C(=O)NCCN1CCN(C(=O)/C(C#N)=C/c2ccc(O)c(O)c2)CC1 ; read-out: IC50 ; method: 3′ processing / substrate cleavage ; value: 5–10 µM
O=C(Nc1cn2c(c(O)c1=O)C(=O)N(Cc1cccc(Cl)c1F)CC2)c1cccnc1 ; read-out: IC50 ; method: ELISA ; value: 0.01–0.1 µM
O=C(O)/C=C/c1ccc(N=Nc2c(S(=O)(=O)O)cc3cc(NC(=O)C(=O)Nc4ccc5c(O)c(N=Nc6ccc(/C=C/C(=O)O)cc6)c(S(=O)(=O)O)cc5c4)ccc3c2O)cc1 ; read-out: IC50 ; method: strand transfer ; value: 2.3 µM
O=P(O)(O)C(CNc1ccccc1)P(=O)(O)O ; read-out: IC50 ; method: 3′ processing / gel ; value: >100 µM
N#C/C(=C\c1ccc(O)c(O)c1)C(=O)OCc1ccccc1COC(=O)/C(C#N)=C/c1ccc(O)c(O)c1 ; read-out: IC50 ; method: disintegration ; value: 5.6 µM
CCC(=O)NCCCn1c(C(C)(C)C)nc(C(=O)NCc2ccc(F)cc2)c(O)c1=O ; read-out: IC50 ; method: 3′ processing ; value: >20 µM
CN(C)S(=O)(=O)N1CCC2(CC1)OCCCn1c2nc(C(=O)NCc2ccc(F)cc2)c(O)c1=O ; read-out: Ki ; method: binding / radiometric ; value: 0.001–0.003 µM
C#Cc1cccnc1/C=C/C(=O)/C=C/c1ncccc1C#C ; read-out: IC50 ; value: 3 µM
CC(C)OC(=O)c1cn2ccn(Cc3cccc(Cl)c3)c(=O)c2c(O)c1=O ; read-out: IC50 ; method: ELISA ; value: 0.01–0.1 µM
O=C(/C=C/c1cccnc1)/C=C/c1cccnc1 ; read-out: IC50 ; value: 5 µM
N#C/C(=C\c1ccc(O)c(O)c1)C(=O)c1ccc(O)c(O)c1 ; read-out: IC50 ; method: 3′ processing / substrate cleavage ; value: 1 µM
COC(=O)c1cn(Cc2cccc(Cl)c2)c(=O)c2c(O)c(=O)ccn12 ; read-out: IC50 ; method: ELISA ; value: 0.01–0.1 µM
Cc1ncnn1-c1cc(F)ccc1CNC(=O)c1nc2n(c(=O)c1O)CCOCC21CCN(S(=O)(=O)N(C)C)CC1 ; read-out: Ki ; method: binding / radiometric ; value: 0.003–0.05 µM
O=c1ncn2ccn(Cc3cccc(Cl)c3)c(=O)c2c1O ; read-out: IC50 ; method: ELISA ; value: 0.01–0.1 µM
CC(C)(C)c1nc(C(=O)NCc2ccc(F)cc2)c(O)c(=O)n1CCCNC(=O)C1CC1 ; read-out: IC50 ; method: 3′ processing ; value: >20 µM
Cc1cn(Cc2cccc(F)c2)c(=O)c2c(O)c(=O)c(-c3ccccn3)cn12 ; read-out: IC50 ; method: ELISA ; value: 0.01–0.1 µM
O=C(Nc1ccc2c(O)c(N=Nc3cccc(C(=O)O)c3)c(S(=O)(=O)O)cc2c1)Nc1ccc2c(O)c(N=Nc3cccc(C(=O)O)c3)c(S(=O)(=O)O)cc2c1 ; read-out: IC50 ; method: 3′ processing ; value: 0.5 µM
N#Cc1cc2cc([N+](=O)[O-])c([N+](=O)[O-])cc2n(O)c1=N ; read-out: IC50 ; method: 3′ processing / gel ; value: 4 µM
COC(=O)[C@H](CCCCNC(=O)c1cc(O)c(O)c(O)c1)NC(=O)c1cc(O)c(O)c(O)c1 ; read-out: IC50 ; method: 3′ processing ; value: >10 µM
COc1cccc2c1c(/C(O)=C\C(=O)C(=O)O)cn2Cc1ccc(F)cc1 ; strain or isolate: IIIB ; read-out: IC50 ; method: 3′ processing / AlphaScreen ; value: 2.1 µM
COC(=O)C(CCCNC(=O)/C=C/c1ccc(O)c(O)c1)NC(=O)/C=C/c1ccc(O)c(O)c1 ; read-out: IC50 ; method: 3′ processing ; value: <10 µM
CC(=O)CNC(=O)c1cn2ccn(Cc3cccc(Cl)c3)c(=O)c2c(O)c1=O ; read-out: IC50 ; method: ELISA ; value: 0.01–0.1 µM
O=C(NC(CNC(=O)c1ccc(O)c(O)c1O)C(=O)O)c1cc(O)c(O)c(O)c1 ; read-out: IC50 ; method: 3′ processing ; value: 0.38 µM
O=C1c2c(O)c(=O)c(-c3nccs3)cn2CCN1CCCc1ccc(Cl)cc1 ; read-out: IC50 ; method: ELISA ; value: 0.01–0.1 µM
O=C(O)CC(C(=O)O)c1ccc(N=Nc2c(S(=O)(=O)O)cc3cc(NC(=O)C(=O)Nc4ccc5c(O)c(N=Nc6ccc(C(CC(=O)O)C(=O)O)cc6)c(S(=O)(=O)O)cc5c4)ccc3c2O)cc1 ; read-out: IC50 ; method: strand transfer ; value: 1 µM
COc1cccc2c1c(/C(O)=C/C(=O)C(=O)O)cn2Cc1ccc(F)cc1.COc1cccc2c1c(/C(O)=C/C(=O)C(=O)O)cn2Cc1ccc(F)cc1.[Mg+2].[Mg+2] ; strain or isolate: IIIB ; read-out: IC50 ; method: 3′ processing / AlphaScreen ; value: 1 µM
COc1cc(C(=O)O)ccc1N=Nc1c(S(=O)(=O)O)cc2cc(NC(=O)Nc3ccc4c(O)c(N=Nc5ccc(C(=O)O)cc5OC)c(S(=O)(=O)O)cc4c3)ccc2c1O ; read-out: IC50 ; method: 3′ processing ; value: 0.5 µM
NC(Cc1ccccc1)(P(=O)(O)O)P(=O)(O)O ; read-out: IC50 ; method: 3′ processing / gel ; value: >100 µM
NC(=O)c1cn2ccn(Cc3cccc(Cl)c3)c(=O)c2c(O)c1=O ; read-out: IC50 ; method: ELISA ; value: 0.01–0.1 µM
O=P(O)(O)C(O)(CCc1ccccc1)P(=O)(O)O ; read-out: IC50 ; method: 3′ processing / gel ; value: >100 µM
Cc1cc(C(=O)O)ccc1N=Nc1c(S(=O)(=O)O)cc2cc(NC(=O)Nc3ccc4c(O)c(N=Nc5ccc(C(=O)O)cc5C)c(S(=O)(=O)O)cc4c3)ccc2c1O ; read-out: IC50 ; method: 3′ processing ; value: 0.4 µM
COc1cccc2c1c(/C(O)=C\C(=O)C(=O)O)cn2Cc1ccccc1F ; strain or isolate: IIIB ; read-out: IC50 ; method: strand transfer / AlphaScreen ; value: 0.06 µM
COC(=O)N1CCC2(CC1)COCCn1c2nc(C(=O)NCc2ccc(F)cc2-n2ncnc2C)c(O)c1=O ; read-out: Ki ; method: binding / radiometric ; value: 0.003–0.05 µM

5 of the rows above, restated:

structure,strain or isolate,read-out,method,value
C#Cc1cccnc1/C=C/C(=O)/C=C/c1ncccc1C#C,,IC50,,3 µM
COC1=C(c2c(OC)cc3cc4cc(C)oc(=O)c4c(O)c3c2O)C(=O)c2c(O)cc(C)cc2C1=O,,IC50,strand transfer,>100 µM
O=C(Nc1cn2c(c(O)c1=O)C(=O)N(Cc1cccc(Cl)c1F)CC2)c1cccnc1,,IC50,ELISA,0.01–0.1 µM
N#C/C(=C\c1ccc(O)c(O)c1)C(=O)NCCN1CCN(C(=O)/C(C#N)=C/c2ccc(O)c(O)c2)CC1,,IC50,3′ processing / substrate cleavage,5–10 µM
COc1cccc2c1c(/C(O)=C\C(=O)C(=O)O)cn2Cc1ccc(F)cc1,IIIB,IC50,3′ processing / AlphaScreen,2.1 µM